Results of unrelated studies side by side (data: NIAID ChemDB).

Shared fields: growth or infection tests; species: Mycobacterium tuberculosis

ECn: concentration that inhibits the pathogen or its effect by n%.

structure | strain | changes | method | measure | dose | value
Cc1ccc2nc(C)c(C(=O)NCc3ccc(C(F)(F)F)cc3)n2c1 | H37Rv |  | low oxygen | EC50 |  | 0.39 µM
CC(C)=CCC(OC(=O)CC(C)C)C1=CC(=O)c2c(O)ccc(O)c2C1=O | PAS-R |  |  | MIC |  | >12.5 µg/mL
N=C1C=CC(O)(c2nc3ccccc3s2)C(SCC(NC(=O)CCC(N)C(=O)O)C(=O)NCC(=O)O)C1 | H37Rv |  |  | EC50 |  | >6.25 µg/mL
N#Cc1cccc(CSc2nc3ccccc3[nH]2)c1 | My 331/88 |  |  | MIC |  | >62 µM
O=C1C=CC(O)(c2cc3ccccc3o2)C=C1 | H37Rv |  |  | EC50 |  | <6.25 µg/mL
CC1(C)OC(CO)C2OC(C)(C)OCC2O1 | H37Rv |  | BACTEC | MIC bound |  | >12.5 µg/mL
O=C1C=CC(O)(c2ccccn2)C=C1 | H37Rv |  |  | EC50 |  | <6.25 µg/mL
FC(F)(F)c1ccc(NC(=S)SCc2ccc(Cl)cc2)cc1 | H37Rv |  | BACTEC | MIC |  | 64 µg/mL
CCCCCCCCCCCOC[n+]1cccc(NCn2cnc3ccccc32)c1 | H37Rv |  |  | MIC |  | <6.25 µg/mL
NCC[C@H](O)C(=O)N[C@@H]1C[C@H](N)[C@@H](O[C@H]2O[C@H](CN)[C@@H](O)[C@H](O)[C@H]2O)[C@H](O)[C@H]1O[C@H]1O[C@H](CO)[C@@H](O)[C@H](N)[C@H]1O | BCG |  |  | MIC |  | 0.25 µg/mL
Cc1cc(C)c(S(=O)(=O)O)c(C)c1Nc1ccc(Nc2c(C)cc(C)c(S(=O)(=O)O)c2C)c2c1C(=O)c1ccccc1C2=O | H37Rv |  | BACTEC | MIC bound |  | >12.5 µg/mL
CCCCCCCCO[C@@H]1O[C@@H](C(COCc2ccccc2)O[C@@H]2O[C@@H](C(COC(C)=O)OC(C)=O)[C@H](OC(C)=O)[C@H]2OC(C)=O)[C@H](OCc2ccccc2)[C@H]1OCc1ccccc1 | H37Ra |  |  | MIC |  | >128 µg/mL
C/C=C1\C(=O)O[C@]23C=C[C@@H]4C(C(=O)OC)=CO[C@H](O[C@@H]12)[C@@H]43 | MDR3 clinical isolate |  | MTT | MBC |  | 3.8 µg/mL
CO[C@H]1/C=C/O[C@@]2(C)Oc3c(C)c(O)c4c(O)c(c(/C=N/N5CCN(C)CC5)c(O)c4c3C2=O)NC(=O)/C(C)=C\C=C\[C@H](C)[C@H](O)[C@@H](C)[C@@H](O)[C@@H](C)[C@H](OC(C)=O)[C@@H]1C | ATCC35801 |  |  | MIC |  | 0.03 µM
O=[N+]([O-])c1ccc(CSc2nc3ccccc3[nH]2)cc1 | My 331/88 |  |  | MIC |  | >62 µM
C/C=C/N1C(=O)CS/C1=N/NC(=O)c1c(C)nc2sccn12 | H37Rv |  |  | MIC |  | >200 µg/mL
O=C1C=CC(O)(c2ccc3ccccc3c2)C=C1 | H37Rv |  |  | MIC |  | >6.25 µg/mL
COC1OC(COC(=O)c2ccccc2)C(OC(=O)c2ccccc2)C1NC(C)=O | H37Rv |  | BACTEC | inhibition | 12.5 µg/mL | 26%
CCCCNC(=S)NNC(=O)c1c(C)nc2sccn12 | H37Rv |  |  | MIC |  | >200 µg/mL
Cc1ccc(S(=O)(=O)OC2C3COC(O3)C3OC(C)(C)OC23)cc1 | H37Rv |  | BACTEC | inhibition | 12.5 µg/mL | 16%
CSc1ccc(NC(=S)Nc2ccc(SC)cc2)cc1 | H37Ra |  |  | MIC |  | 0.5 µg/mL
CCCCCCCCO[C@H]1OC([C@@H](COC)O[C@H]2O[C@H]([C@@H](O)CO)[C@@H](O)[C@@H]2O)[C@@H](OC)[C@@H]1OC | H37Ra |  |  | MIC |  | >12.8 µg/mL
CCCCc1ccc(NC(=S)Nc2ccc(SCCC)cc2)cc1 | H37Ra |  |  | MIC |  | 0.5 µg/mL
CC1(C)S[C@@H]2[C@H](NC(=O)[C@H](N)c3ccc(O)cc3)C(=O)N2[C@H]1C(=O)O | 27 strains |  |  | MIC90 |  | >32 µg/mL
Cc1nn(C(=O)c2ccncc2)c(C)c1N=Nc1ccc(S(=O)(=O)Nc2ccccn2)cc1 | H37Rv |  | BACTEC | inhibition | 12.5 µg/mL | -12%
Oc1cccc2c1[nH]c1c(C3=C[C@]4(O)C/C=C/CCCCCN5CC[C@@H]3[C@]3(C[C@@H]6/C=C\CCCCN6C34)C5)nccc12 | H37Rv |  |  | MIC |  | <12.5 µg/mL
COC(=O)[C@H]1[C@H]2C[C@@H]3c4[nH]c5cc(OC)ccc5c4CCN3C[C@H]2C[C@@H](OC(=O)c2cc(OC)c(OC)c(OC)c2)[C@@H]1OC |  |  |  | MIC90 |  | 8 µg/mL
C[C@H]1[C@H](C)CC[C@]2(C(=O)O)CC[C@]3(C)C(CC[C@@H]4[C@@]5(C)C[C@H](O)CC(C)(C)[C@@H]5CC[C@]43C)[C@H]12 | H37Rv (ATCC 27294) |  | resazurin | MIC |  | 25 µg/mL
COc1cc(OC)nc(NC(=O)NS(=O)(=O)c2ncccc2C(=O)N(C)C)n1 | T13704 |  |  | MIC |  | 16 µM
Cc1cn2c(C(=O)NCc3ccc(C(F)(F)F)cc3)c(C)nc2s1 | H37Rv |  | low oxygen | MIC |  | 5.6 µM
CN1CCN(c2cc3c(cc2F)c(=O)c(C(=O)O)cn3C2CC2)CC1 |  |  |  | MIC50 |  | 0.125 µg/mL
Clc1cccc(CSc2nc3ccccc3[nH]2)c1 | My 331/88 |  |  | MIC |  | >125 µM
CCCCc1ccc(NC(=S)Nc2ccc(O)cc2)cc1 | H37Ra |  |  | MIC |  | 0.5 µg/mL
CCCN1CCN(c2cc3c(cc2F)c(=O)c(C(=O)O)cn3C2CC2)CC1 |  |  |  | MIC50 |  | 0.125 µg/mL
Cc1c(C(=O)C/C(=N\NC(=O)c2ccccc2)C(=O)Nc2ccc(Cl)cc2)[n+](=O)c2ccccc2n1[O-] | H37Rv |  | BACTEC | inhibition | 12.5 µg/mL | 43%
CCn1cc(C(=O)O)c(=O)c2cc(F)c(N3CCN(C)CC3)cc21 | 58 isolates |  |  | MIC90 |  | 8 µg/mL
CC(=O)Oc1c(C/C=C(\C)CC/C=C(\C)CCC=C(C)C)c(=O)oc2ccccc12 | H37Rv |  |  | inhibition | 12.5 µg/mL | 0%
c1ccc(CSc2nc3ccccc3[nH]2)cc1 | My 331/88 |  |  | MIC |  | >250 µM
COc1ccc2nc(C)c3c(c2c1)C(=O)N(CCCN1CCN(CCCN2C(=O)c4c(C)nc5ccc(OC)cc5c4C2=O)CC1)C3=O | H37Rv |  | BACTEC | MIC bound |  | >12.5 µg/mL
NC(=S)c1ccc(CSc2nc3ccccc3[nH]2)cc1 | My 331/88 |  |  | MIC |  | 16 µM
CCC/C=c1\[nH]c(=O)/c(=C/c2ccc(OC)cc2)[nH]c1=O | H37Rv |  | BACTEC | MIC |  | ≥12.5 µg/mL
Nc1ccc(S(=O)(=O)c2ccc(N)cc2)cc1 | BCG |  |  | MIC |  | >128 µg/mL
CCN1C(=O)CS/C1=N/NC(=O)c1c(C)nc2sccn12 | H37Rv |  |  | MIC |  | >200 µg/mL
Fc1ccc(CSc2nc3ccccc3[nH]2)cc1F | My 331/88 |  |  | MIC |  | 62 µM
CO[C@H]1/C=C/O[C@@]2(C)Oc3c(C)c(O)c4c(=O)c(c5oc6cc(N7CCN(CC(C)C)CC7)cc(=O)c6nc5c4c3=C2O)NC(=O)/C(C)=C\C=C\[C@H](C)[C@H](O)[C@@H](C)[C@@H](O)[C@@H](C)[C@H](OC(C)=O)[C@@H]1C | Kurono |  |  | MIC |  | 0.002 µg/mL
Cc1oc(-c2cccc(F)c2)nc1C(N)=O | H37Rv |  | BACTEC | MIC bound |  | >12.5 µg/mL
Cc1ccn2c(C(=O)NCc3ccc(S(F)(F)(F)(F)F)cc3)c(C)nc2c1 | H37Rv |  | low oxygen | MIC |  | 1.1 µM
CC(=O)NC[C@H]1CN(c2ccc(-c3ccc(-c4nnnn4C)nc3)c(F)c2)C(=O)O1 | 67 clinical isolates |  |  | MIC50 |  | 0.0625 µg/mL
NNC(=O)c1cccc([N+](=O)[O-])c1 | H37Rv |  | BACTEC | MIC bound |  | >12.5 µg/mL
O=C1c2ccccc2C(=O)c2cc(C[P+](c3ccccc3)(c3ccccc3)c3ccccc3)ccc21 | FJ05195 | Extensively drug-resistant | resazurin | MIC |  | 1 µg/mL
CO[C@H]1/C=C/O[C@@]2(C)Oc3c(C)c(O)c4c(O)c(c5c(c4c3C2=O)NC2(CCN(CC(C)C)CC2)N=5)=NC(=O)/C(C)=C\C=C\[C@H](C)[C@H](O)[C@@H](C)[C@@H](O)[C@@H](C)[C@H](OC(C)=O)[C@@H]1C | 1620-4 |  |  | MBC |  | 0.125 µg/mL
Cc1nc2sccn2c1C(=O)NNC(N)=S | H37Rv |  |  | MIC |  | 100 µg/mL
CCCCCCCCCCOC[n+]1cccc(NCNc2ccc[n+](COCCCCCCCCCC)c2)c1 | H37Rv |  |  | MIC |  | <6.25 µg/mL
O=C(Nc1cccc(NC(=O)c2nn[nH]n2)n1)c1nn[nH]n1 | H37Rv |  | BACTEC | inhibition | 12.5 µg/mL | 70%
CC(C)c1cc2c(cc1O)[C@@]1(C)CCCC(C)(C)C1CC2 | H37Rv |  |  | MIC |  | >12.5 µg/mL
CN[C@@H]1[C@H](O[C@H]2[C@H](O[C@H]3[C@H](O)[C@@H](O)[C@H](N=C(N)N)[C@@H](O)[C@@H]3N=C(N)N)O[C@@H](C)[C@]2(O)C=O)O[C@@H](CO)[C@H](O)[C@H]1O | BCG |  |  | MIC |  | 0.25 µg/mL
COC(=O)c1ccccc1S(=O)(=O)NC(=O)Nc1nc(C)cc(C)n1 | ATCC35801 |  |  | MIC |  | 12 µM
Cc1cn([C@H]2C[C@H](CCN(O)C[C@H]3O[C@@H](n4cc(C)c(=O)[nH]c4=O)C[C@@H]3O)[C@@H](CO)O2)c(=O)[nH]c1=O | H37Rv |  | resazurin | inhibition | 6.25 µg/mL | 14%
O[C@]12C=C(c3nccc4c3[nH]c3ccccc34)[C@@H]3CCN(CCCC/C=C/CC1)C[C@@]31C[C@@H]3/C=C\CCCCN3C12 | H37Rv |  |  | MIC |  | <12.5 µg/mL
CCCCN1C(=O)CS/C1=N/NC(=O)c1c(C)nc2sccn12 | H37Rv |  |  | MIC |  | >200 µg/mL
O=C1c2c(O)c(O)c(S(=O)(=O)O)c(O)c2C(=O)c2c(O)c(O)c(S(=O)(=O)O)c(O)c21 | H37Rv |  |  | inhibition | 6.25 µg/mL | 3%
NNC(=O)c1ccncc1 | BCG |  |  | MIC |  | 0.06 µg/mL
FC(F)(F)c1cc(CSc2nc3ccccc3[nH]2)cc(C(F)(F)F)c1 | My 331/88 |  |  | MIC |  | >62 µM
CC(=O)C1(N=Nc2ccc(S(=O)(=O)Nc3ccccn3)cc2)CCOC1=O | H37Rv |  | BACTEC | inhibition | 12.5 µg/mL | 17%
c1ccc(CN(CCN(Cc2ccccn2)Cc2ccccn2)Cc2ccccn2)nc1 |  |  |  | MIC90 |  | 8 µg/mL
COC1(c2nc3ccc(C)cc3s2)C=CC(=NS(=O)(=O)c2ccc(C)cc2)C=C1 | H37Rv |  |  | MIC |  | >6.25 µg/mL
CCCCCCCCOC1O[C@@H](C(O)COC2O[C@@H](C(O)CO)[C@H](O)[C@H]2O)[C@H](O)[C@H]1O | H37Ra |  |  | MIC |  | >128 µg/mL
CCCN1C(=O)CS/C1=N/NC(=O)c1c(C)nc2sccn12 | H37Rv |  |  | MIC |  | >200 µg/mL
O=C1C=CC(O)(c2cccc3ccccc23)C=C1 | H37Rv |  |  | EC50 |  | <6.25 µg/mL
O=C(O)CSC(=S)N1CCOCC1 | H37Rv |  | BACTEC | MIC |  | ≥128 µg/mL
CC(C)CCOc1ccc(NC(=S)Nc2ccc(OCCC(C)C)cc2)cc1 | Erdman |  |  | MIC |  | <1 µg/mL
C=CCSC(=S)Nc1nc2ccc([N+](=O)[O-])cc2s1 | H37Rv |  | BACTEC | MIC |  | 16 µg/mL
CCCCc1ccc(NC(=S)Nc2ccc(OCCC(C)C)cc2)cc1 | H37Ra |  |  | MIC |  | 0.5 µg/mL
CCCCCCCCN(CCCCCCCC)CC(O)c1ccc2c(c1)Sc1ccccc1O2.Cl | H37Rv |  | BACTEC | inhibition | 12.5 µg/mL | 86%
COC(=O)[C@H]1[C@H]2C[C@@H]3c4[nH]c5cc(OC)ccc5c4CCN3C[C@H]2C[C@@H](OC(=O)/C=C/c2cc(OC)c(OC)c(OC)c2)[C@@H]1OC |  |  |  | MIC50 |  | 32 µg/mL
N=C(N=c1cc(C(=O)NC(=N)NC(=N)Nc2ccc(Cl)cc2)n(C(=N)NC(=N)Nc2ccc(Cl)cc2)c(C(=O)NC(=N)NC(=N)Nc2ccc(Cl)cc2)c1)NC(=N)Nc1ccc(Cl)cc1 | H37Rv |  | resazurin | MIC bound |  | >6.25 µg/mL
CCCCSc1nc2ccccc2[nH]1 | My 331/88 |  |  | MIC |  | >250 µM

For reference, 9 entries again:

structure,strain,changes,method,measure,dose,value
CC1(C)OC(CO)C2OC(C)(C)OCC2O1,H37Rv,,BACTEC,MIC bound,,>12.5 µg/mL
C[C@H]1[C@H](C)CC[C@]2(C(=O)O)CC[C@]3(C)C(CC[C@@H]4[C@@]5(C)C[C@H](O)CC(C)(C)[C@@H]5CC[C@]43C)[C@H]12,H37Rv (ATCC 27294),,resazurin,MIC,,25 µg/mL
Nc1ccc(S(=O)(=O)c2ccc(N)cc2)cc1,BCG,,,MIC,,>128 µg/mL
CCCN1CCN(c2cc3c(cc2F)c(=O)c(C(=O)O)cn3C2CC2)CC1,,,,MIC50,,0.125 µg/mL
O=C1C=CC(O)(c2cc3ccccc3o2)C=C1,H37Rv,,,EC50,,<6.25 µg/mL
Cc1ccc(S(=O)(=O)OC2C3COC(O3)C3OC(C)(C)OC23)cc1,H37Rv,,BACTEC,inhibition,12.5 µg/mL,16%
Fc1ccc(CSc2nc3ccccc3[nH]2)cc1F,My 331/88,,,MIC,,62 µM
CCn1cc(C(=O)O)c(=O)c2cc(F)c(N3CCN(C)CC3)cc21,58 isolates,,,MIC90,,8 µg/mL
C=CCSC(=S)Nc1nc2ccc([N+](=O)[O-])cc2s1,H37Rv,,BACTEC,MIC,,16 µg/mL

MIC bound comes from a single tested concentration. An empty or dashed field is not shown. Inhibition is in % at the dose shown (toxicity tests: loss of growth or viability). Conditions beyond the fields shown may differ between rows. A number after MIC or MFC names an inhibition level or a share of isolates.